According to ChEMBL document CHEMBL4004820 (J Med Chem, 2017):

Test: Antiviral activity against Influenza A virus (A/WSN/1933(H1N1)) expressing M2 proton channel S31N mutant infected in MDCK cells assessed as reduction in cytopathic effect after 48 hrs by crystal violet staining-based microscopic analysis; call rule not given here

Compound | IC50
NC1(C23CC4CC(CC(C4)C2)C3)CCCCC1 | Not Active
NC1(C23CC4CC(CC(C4)C2)C3)CCCC1 | 3.92 to 4.34 µM
